Measurements reported in patent US20090191571A1, “Isolation and Detection of Pathogenic Prions” (priority 2005, published 2009).

Biological target: T1, PrP^Sc (pathogenic mouse prion protein, RML, in infected Balb-c mouse brain homogenate) (mouse), P04925

First: KKKAGAAAAGAVVGGLGGYMLGSAM [Peptide reagent SEQ ID NO:57]
Second: GGGAGAAAAGAVVGGLGGYMLGSAM [Peptide reagent SEQ ID NO:78]
The ELISA A405nm of the first is higher: 0.901 A405nm for the first, 0.259 A405nm for the second.

First: GGGQWNKPSAPKTN [Peptide reagent SEQ ID NO:93]
Second: GGGKKRPKPGGGQWNKPSKPKTN [Peptide reagent SEQ ID NO:81]
The ELISA A405nm of the first is lower: 0.25 A405nm for the first, 1.25 A405nm for the second.

Going from QWNKPSKPKTNGGG [Peptide reagent SEQ ID NO:50] to KKKAGAAAAGAVVGGLGGYMLGSAMKKK [Peptide reagent SEQ ID NO:84], the ELISA A405nm falls from 0.932 A405nm to 0.268 A405nm.

First: DDDAGAAAAGAVVGGLGGYMLGSAM [Peptide reagent SEQ ID NO:83]
Second: GGGWNKPSKPKT [Peptide reagent SEQ ID NO:75]
The ELISA A405nm of the first is lower: 0.237 A405nm for the first, 0.247 A405nm for the second.

Compared with QWNKPSKPKTNGGGQWNKPSKPKTN [Peptide reagent SEQ ID NO:51], GGGQWNKPSKAKTN [Peptide reagent SEQ ID NO:91] is lower in ELISA A405nm: 0.923 A405nm for the first, 0.256 A405nm for the second.

First: GGGQWNKPSKPATN [Peptide reagent SEQ ID NO:94]
Second: GGGKKRPKPGGWNTGGSRYPGQGS [Peptide reagent SEQ ID NO:66]
The ELISA A405nm of the first is lower: 0.26 A405nm for the first, 0.533 A405nm for the second.

First: QWNKPSKPKTNLKHVGGG [Peptide reagent SEQ ID NO:77]
Second: DDDAGAAAAGAVVGGLGGYMLGSAMDDD [Peptide reagent SEQ ID NO:86]
The ELISA A405nm of the first is higher: 0.839 A405nm for the first, 0.227 A405nm for the second.

Biological target: T1, PrP^Sc (pathogenic mouse prion protein, …)
Remark: another data set of the same source

Compared with GGGQWNKASKPKTN [Peptide reagent SEQ ID NO:99], GGGQWAKPSKPKTN [Peptide reagent SEQ ID NO:100] is higher in ELISA A405nm: 0.25 A405nm for the first, 0.376 A405nm for the second.

Compared with GGGQWNKPSAPKTN [Peptide reagent SEQ ID NO:93], GGGQWNKPAKPKTN [Peptide reagent SEQ ID NO:101] is higher in ELISA A405nm: 0.256 A405nm for the first, 0.356 A405nm for the second.

First: GGGQWNKPSKAKTN [Peptide reagent SEQ ID NO:91]
Second: GGGQWNKPSKPATN [Peptide reagent SEQ ID NO:94]
The ELISA A405nm of the first is higher: 0.26 A405nm for the first, 0.23 A405nm for the second.

GGGQWNKPSKPKAN [Peptide reagent SEQ ID NO:102] gave an ELISA A405nm of 0.234 A405nm.
